{"source": "patent US20030190650A1", "about": "(priority 2000, published 2003)", "tested_on": "primary human neutrophils", "test": "PAO and neutrophil survival (MTT)", "conditions": "low doses of PAO (0.1-1 μM)", "data": [{"smiles": "O=[As]c1ccccc1", "note": "(stereo not shown)", "values": [{"measurement": "survival of neutrophils after 24 h in culture", "value": "increase the survival"}]}]}
